For this data set, the system named is CC(C)=CCC[C@@H](C)[C@H]1CC[C@@]2(C)C3=C(CC[C@]12C)[C@@]1(C)CC[C@H](O)C(C)(C)[C@@H]1CC3. The experiment in a line: purified protein, by the assay type. The conditions noted are these: other: 0.13 μM CYP51, 0.5 μM AfCPR1, 5 min at 37 °C, substrate inhibition equation.

In general, Km refers to the concentration of substrate that gives half-maximal velocity. The kcat is the maximal rate divided by the concentration of active sites. Regarding “M. globosa CYP51 (Malassezia globosa CBS 7966; A7V/E4L/G6A/I5L/L2A/Q3L/W8F)”, the Km came out at 55.14 ± 6.51 µM and the kcat worked out at 0.3745 ± 0.0365 s⁻¹.

The values above are taken from paper PMC4904373, “Azole Antifungal Sensitivity of Sterol 14α-Demethylase (CYP51) and CYP5218 from Malassezia globosa” (Scientific Reports, 2016).
